Experimental data: PMC13251380

Columns and labels:
Assay in all cases: EMSA
[1] = test system: LuxTVc (6xHis-LuxT) (Vibrio cholerae C6706); details: pH 8, […], 20 min room temperature, recombinant protein, protein details: N-term 6xHis (pET15b)
[2] = test system: LuxTVh (6xHis-LuxT) (Vibrio harveyi); details: pH 8, […], 20 min room temperature, recombinant protein, protein details: 6xHis
[3] = test system: LuxTVc delta8-AA N-term (Vibrio cholerae C6706); details: affinity similar to LuxTVc, pH 8, […], 20 min room temperature, recombinant protein, protein details: N-term 6xHis (pET15b)

Q: Does “CGTTATTGGCTTGTTGCTTCGCGTATTCAAGAGGATCTTTGTTGACTCAAACAATTATGCATAAAGGGGGGATTTCCCCCCTTTTTCATTTGTATCCTGTTCGGTAAAGTACAAACCGAAATGACTAAAAAAATTTCATTCATTATTAACGGCCAGGTTGAAATCTTTCCCGAAAGTGATGATTTAGTGCAATCCATTAA (double strand) [PvqmRVm LuxT site]” bind [1]?
A: binds

Q: Which results are given for “TCAGCCCTCTTTTTTTATATATTTAATCTTGCCCTCATAATCAGTACGCTGTATTATCAATTACAACCGAACTACGTACTGTTTAGTTGTCGTCACGATAATAAAATTTCATGAGGTTGCTTGTGTCTAG (double strand) [PswrZVh -110 to +20]”?
A: binding result [2]: binds; binding result ([1]; two band shifts): binds; binding result [3]: binds

Q: Does “TTATGTCGGTTTCCGAGTATTGCGCGAGCTGTAATGTTGACTCAAACAATTATGCATAAAGGGGGGATTTCCCCCCTTTTTCATTTGTACCGCGTTCGGTAAAGTACAAACCAGAGCATGAGTTGCATGACTGATGCTTGGTATCAATATGATACCTCTG (double strand) [PvqmRVc -111 to +49]” bind [1]?
A: binds

The exact form of at least one protein or probe is not confirmed. For some assays here: At least one verdict was read from the data and is not stated in words by the source.
